Assay results as given in patent US10611795B2, “Methods for viral inactivation using eco-friendly detergents” (priority 2013, dated 2020).

Tested on: Xenotropic Murine Leukemia Virus (XMuLV)
Assay: XMuLV inactivation, TCID50 assay with PG-4 indicator cells (LRV)
Type: cell-based
Settings: MAb1 HCCF, 20° C.

CCCCOP(=O)(OCCCC)OCCCC
xMuLV inactivation LRV, Time 1 (1 h): 2.9
xMuLV inactivation LRV, Time 3 (3 h): 3.1
xMuLV inactivation, in words (detergent or solvent alone): less effective
